US9505795B2, “Method for producing scyllo-inositol” (Asahi Kasei Chemicals Corporation, priority 2012, dated 2016)

System: β-glucosidase (Cellobiase, Sigma)
Test: enzymatic decomposition of the scyllo-inositol derivative by Cellobiase (β-glucosidase), followed by HPLC
Type: biochemical, mold of the genus Aspergillus
Conditions: 6 mg/mL in 150 mM Bis-Tris buffer pH 7.0, 25 U/mL Cellobiase, 40° C.

SMILES: OC[C@@H]1O[C@@H](O[C@H]2[C@H](O)[C@H](O)[C@H](O)[C@@H](O)[C@H]2O)[C@@H](O)[C@@H](O)[C@@H]1O [scyllo-inositol derivative, 1-O-β-D-glucopyranosyl-scyllo-inositol]
- decomposition by β-glucosidase to glucose and scyllo-inositol (start of reaction to after 20 hours): decomposed completely
- decomposition by β-glucosidase to glucose and scyllo-inositol (start of reaction to hour 3): virtually all
